Data on 1 compound can be found in publication PMC7913927, “Leishmanicidal Activity of Betulin Derivatives in Leishmania amazonensis; Effect on Plasma and Mitochondrial Membrane Potential, and Macrophage Nitric Oxide and Superoxide Production” (Microorganisms, 2021).

This series concerns LTB0016 intracellular amastigotes in J774.1 macrophages. In words: Macrophage-amastigote model, reference strain. In kind it is cell-based, Leishmania amazonensis. As to the method: We used a previously described methodology, with some modifications. Macrophage monolayers, grown in RMPIc medium, for 3 days, were detached from the bottom of the culture chamber, by physical treatment (low temperature and light strokes). Obtained macrophages were seeded in flat-bottom 96-well culture plates, at a density of 2 × 10^5 cells mL^−1 (40,000 macrophages/well), in a final volume of 200 µL. Plates were incubated for 2 h, and the supernatant was discarded to remove non-adhered macrophages. Medium was replaced with stationary-phase promastigotes suspended in 200 µL of RPMIc (2 × 10^6 parasites mL^−1, 400,000 parasites/well), at a macrophage: parasite ratio 1:10 [40]. The plates were incubated for 4 h. Afterwards the medium was replaced with fresh RPMIc and increasing concentrations of compounds or drugs tested were applied, in volumes of 2 µL, according to the different treatment groups. Plates were kept for 72 h, at 37 °C and 5% CO2. The medium was discarded and the wells were washed twice with PBS. Next, a Giemsa staining was performed in situ. […] The percentage of infected macrophages (% infection) and the average number of amastigotes present in infected macrophages (amastigotes) were determined. […] The infection rate represents the number of intracellular amastigotes per 100 macrophages evaluated. Additionally, the GI50 for the decrease in the infection rate was calculated. […]

As for `C=C(C)C1CCC2(C=NO)CCC3(C)C(CCC4C5(C)CCC(=NO)C(C)(C)C5CCC43C)C12` (centres unmarked) [Compound 18], the “Selectivity index amastigote (ISa) LTB0016” value (CC50 MØJ774 / supplement mean GI50) came to 172.99. Besides, the SI (summary bound for reference strain LTB0016 and patient isolates, vs J774.1 macrophages) is recorded as more than 20.
